Anti-infective test results gathered from many reports (values: NIAID ChemDB through PubChem).

Common to all: tests in culture; species: HIV-1

Neighbouring rows are from separate reports.

C[C@@H]1O[C@@H](Oc2c(-c3ccc(O)cc3)oc3c4c(cc(O)c3c2=O)OC(C)(C)C=C4)[C@H](O)[C@H](O)[C@H]1O ; strain: IIIB ; method: cytopathic effect / MTT ; endpoint: EC50 ; cell line: MT-4 ; value: >500 µg/mL
c1ncc(CN2CCCNCCNCCCNCC2)cc1CN1CCCNCCNCCCNCC1 ; strain: IIIB ; method: cytopathic effect / MTT ; endpoint: EC50 ; cell line: MT-4 ; value: 0.04 µg/mL
O=C(OC[C@H]1OC(=O)c2ccccc21)c1ccccc1 ; endpoint: EC50 ; cell line: MT-4 ; value: >10 µM
CC1(C)OC2=C(CC3C=C(c4cc(O)cc(O)c4)OC3=C2)CC1O ; strain: IIIB ; method: MTT ; endpoint: EC50 ; cell line: MT-4 ; value: >20 µg/mL
O=[P@]12O[C@@H]([C@@H](O)[C@@H](Cc3ccccc3)N1CC1CC1)[C@@H](Cc1ccccc1)N2CC1CC1 ; strain: RF ; endpoint: EC50 ; cell line: MT-2 ; value: <110.5 µM
COc1ccc2c(c1)CCCN2CCC(=O)N1CCN(c2ccc([N+](=O)[O-])cc2)CC1 ; strain: IIIB ; method: syncytia / visual reading ; endpoint: EC50 ; cell line: C8166 ; value: 5.45 µg/mL
COC(=O)N[C@H](C(=O)N[C@@H](Cc1ccc(C#Cc2cnc(N3CC4CCC(C3)N4C3COC3)nc2)cc1)[C@H](CN(Cc1c(F)cc(-c2ccn(C(F)F)n2)cc1F)NC(=O)[C@@H](NC(=O)OC)C(C)(C)C(F)(F)F)OC(=O)CC(C)(C)c1c(CC(=O)Nc2ccc(C(=O)O)cc2)cc(C)cc1OP(=O)(O)O)C(C)(C)C(F)(F)F ; strain: IIIB ; method: luminescence ; endpoint: EC50 ; cell line: MT-4 ; value: 0.251 µM
COc1ccc2c(c1)CCCN2CCC(=O)N1CCN(c2ccccn2)CC1 ; strain: IIIB ; method: syncytia / visual reading ; endpoint: EC50 ; cell line: C8166 ; value: 21.07 µg/mL
COC(=O)N[C@H](C(=O)N[C@@H](Cc1ccc(C#Cc2cnc(N3CC4CCC(C3)N4C3COC3)nc2)cc1)[C@H](CN(Cc1c(F)cc(-c2ccn(C(F)F)n2)cc1F)NC(=O)[C@@H](NC(=O)OC)C(C)(C)C(F)(F)F)OC(=O)CC(C)(C)c1c(CC(=O)N2CCN(S(=O)(=O)N(C)C)CC2)cc(C)cc1OP(=O)(O)O)C(C)(C)C(F)(F)F ; strain: IIIB ; method: luminescence ; endpoint: EC50 ; cell line: MT-4 ; value: 1.28 µM
CC(C)=CCc1c(O)cc(O)c2c1O[C@H](c1ccccc1)CC2=O ; strain: IIIB ; method: MTT ; endpoint: EC50 ; cell line: MT-4 ; value: >100 µg/mL
Nc1ccn([C@@H]2CC[C@H](CO)O2)c(=O)n1 ; strain: IIIB ; endpoint: EC50 ; cell line: MT-4 ; value: 14.5 µM
[N-]=[N+]=N[C@H]1[C@@H](O)[C@H](n2cnc3c(=O)[nH]c(N)nc32)O[C@@H]1CO ; endpoint: EC50 ; cell line: PBMC ; value: 9.03 µM
CC(C)=CCc1c(-c2ccc(O)cc2O)oc2cc(O)cc(O)c2c1=O ; strain: IIIB ; method: cytopathic effect / MTT ; endpoint: EC50 ; cell line: MT-4 ; value: >8 µg/mL
CCc1c(C(=O)c2cc(C)cc(C)c2)n(CC2CC=CC2)c(=O)[nH]c1=O ; method: cytopathic effect / XTT ; endpoint: EC50 ; cell line: CEM + CEM-SS ; value: 0.002 µM
COc1cc(O)cc2c1[C@@H]1Oc3c(ccc(O)c3CC=C(C)C)[C@@H]1CO2 ; strain: IIIB ; method: cytopathic effect / MTT ; endpoint: EC50 ; cell line: MT-4 ; value: >20 µg/mL
COc1ccc2c(c1)CCCN2CCC(=O)N1CCN(Cc2ccccc2)CC1 ; strain: IIIB ; method: syncytia / visual reading ; endpoint: EC50 ; cell line: C8166 ; value: 43.79 µg/mL
CCc1nc(SC)n(COCc2ccccc2)c1Cc1ccccc1 ; strain: IIIB ; method: cytopathic effect / MTT ; endpoint: EC50 ; cell line: MT-4 ; value: >100 µM
COc1ccc2c(c1)CCCN2CCC(=O)N1CCN(c2ccccc2)CC1 ; strain: IIIB ; method: syncytia / visual reading ; endpoint: EC50 ; cell line: C8166 ; value: 14.21 µg/mL
[N-]=[N+]=N[C@H]1[C@@H](O)[C@H](n2cnc3c(N)ncnc32)O[C@@H]1CO ; endpoint: EC90 ; cell line: PBMC ; value: 48.3 µM
CC(C)=CCc1c(O)c(CC=C(C)C)c2occ(-c3ccc(O)cc3)c(=O)c2c1O ; strain: IIIB ; method: MTT ; endpoint: EC50 ; cell line: MT-4 ; value: >20 µg/mL
Cc1c(Cc2c(F)cccc2F)nc(SCc2ccc(C(C)C)cc2)[nH]c1=O ; method: cytopathic effect / MTT ; mutations: RT-Y188L ; endpoint: EC50 ; cell line: MT-4 ; value: >62 µM
c1cc(CN2CCCNCCNCCCNCC2)cc(CN2CCCNCCNCCCNCC2)c1 ; strain: IIIB ; method: cytopathic effect / MTT ; endpoint: EC50 ; cell line: MT-4 ; value: 0.04 µg/mL
Nc1ccn([C@H]2CC[C@@H](CO)O2)c(=O)n1 ; strain: RF ; endpoint: EC90 ; cell line: MT-2 ; value: 0.1–0.3 µM
Nc1nc(=O)n([C@@H]2CC[C@H](CO)O2)cc1F ; strain: G910-6 AZT-resistant (RT D67N K70R T215Y K219Q) ; method: RT activity ; mutations: RT-D67N K70R T215Y K219Q ; endpoint: EC50 ; cell line: MT-2 ; value: 0.95 µM
COC(=O)N[C@H](C(=O)N[C@@H](Cc1ccc(C#Cc2cnc(N3CC4CCC(C3)N4C3COC3)nc2)cc1)[C@H](CN(Cc1c(F)cc(-c2ccn(C(F)F)n2)cc1F)NC(=O)[C@@H](NC(=O)OC)C(C)(C)C(F)(F)F)OC(=O)CC(C)(C)c1c(CC(=O)N(CCC(=O)O)CCC(=O)O)cc(C)cc1OP(=O)(O)O)C(C)(C)C(F)(F)F ; strain: IIIB ; method: luminescence ; endpoint: EC50 ; cell line: MT-4 ; value: 0.1696 µM
COc1ccc2c(c1)CCCN2CCC(=O)N1CCN(c2cccc(Cl)c2Cl)CC1 ; strain: IIIB ; method: syncytia / visual reading ; endpoint: EC50 ; cell line: C8166 ; value: 17.4 µg/mL
CC(C)=CCc1c(-c2ccc(O)cc2O)oc2c3c(cc(O)c2c1=O)OC(C)(C)C=C3 ; strain: IIIB ; method: MTT ; endpoint: EC50 ; cell line: MT-4 ; value: >20 µg/mL
CCCCN1[C@H](Cc2ccccc2)[C@H](O)[C@@H]2O[P@]1(=O)N(CCCC)[C@@H]2Cc1ccccc1 ; strain: RF ; endpoint: EC90 ; cell line: MT-2 ; value: >109.5 µM
CC(C)=CCc1cc([C@H]2Oc3c(ccc(O)c3CC=C(C)C)C(=O)[C@@H]2O)ccc1O ; strain: IIIB ; method: MTT ; endpoint: EC50 ; cell line: MT-4 ; value: 1.17 µg/mL
Cc1cn([C@H]2C[C@H](N=[N+]=[N-])[C@@H](CO)O2)c(=O)[nH]c1=O ; endpoint: EC50 ; cell line: PBMC ; value: 0.0024 µM

ECn: concentration that inhibits the pathogen or its effect by n%. Two numbers with a dash give a range or band.